Laboratory results from patent US5681800A, “Biodegradable branched synthetic ester base stocks and lubricants formed therefrom” (priority 1995, dated 1997).

Tested on: sewage micro-organisms
Assay: Biodegradation, Modified Sturm test (OECD 301B)
Conditions: for % Biodegradation (28 Days) / 10-Day Window: Table 8

## triester of trimethylolpropane and isostearic acid [TMP/iC18]
  % Biodegradation (28 Days): 63.32%
  10-Day Window: no
Table 2
  % Biodegradation (Mod. Sturm): ~ 65%

## CCCCCCCCCOC(=O)CCCCC(=O)OCCCCCCCCC [L9 Adipate, diester of adipic acid and nC9 alcohol]
  % Biodegradation (28 Days): 89.63%
  10-Day Window: yes
